Measured values from several laboratories, pooled; numbers as filed in NIAID ChemDB.

Common to all: tests in culture; species: HIV-1; read-out: EC50

Rows are shuffled and stem from different studies. Blank or dashed fields: not listed here. ECn: concentration that inhibits the pathogen or its effect by n%.

SMILES	strain or isolate	mutations	cell line	read by	setting	value
O[C@H](CNCc1ccccc1)[C@H](O)CNCc1ccccc1	Z2Z6		PM1	cytopathic effect / MTT		>100 µM
CCCc1cc(=O)oc2c3c(c4c(c12)OC(C)(C)C=C4)O[C@H](C)[C@@H](C)[C@@H]3O	TIBO R82150-resistant (RT A98G V108I)	RT-A98G V108I	CEM + CEM-SS	XTT		22 µM
CCn1nc(Cc2ccc(OC)cc2)cc1C1CCN(C[C@H]2CN([C@@H](C(=O)O)C3CCCCC3)C[C@@H]2c2cccc(F)c2)CC1	BaL		HeLa	β-galactosidase	50% human serum	<0.033 µM
NC(=O)c1c(N)n(COCCO)c2ncnc(N)c12			MT-2 + MT2	cytopathic effect / XTT		>380 µM
CCOC(=O)[C@@H](NC(=O)[C@@H](O)[C@H](O)C(=O)N[C@H](C(=O)OCC)[C@@H](C)CC)[C@@H](C)CC	Z2Z6		PM1	cytopathic effect / MTT		>100 µM
CN(C)CCN(C)CCCCCCCCOP(=O)(O)OC[C@H]1OC(O)[C@H](O)[C@@H](O)[C@@H]1O	LAI		CEM + CEM-4	RT activity		1 µM
c1ccc(CNc2nc(-c3cccnc3)cs2)cc1	NL4-3	WT	HeLa CD4	β-galactosidase		0.801 µM
CCCc1cc(=O)oc2c3c(c4c(c12)OC(C)(C)C=C4)O[C@@H](C)[C@H](C)[C@@H]3O	HEPT-resistant (RT P236L)	RT-P236L	CEM + CEM-SS	cytopathic effect / XTT		1.1 µM
CCOC(=O)[C@H](Cc1c[nH]c2ccccc12)NC(=O)[C@@H](O)[C@H](O)C(=O)N[C@@H](Cc1c[nH]c2ccccc12)C(=O)OCC	Z2Z6		PM1	cytopathic effect / MTT		>100 µM
Cc1ccnc2c1NC(=O)c1cccnc1N2C1CC1		Y181C		RT activity	pseudotyped	>10 µM
Cc1ccnc2c1NC(=O)c1cccnc1N2C1CC1	Dihydrocostatolide-resistant (RT-L100I)	RT-L100I	CEM + CEM-SS	XTT		0.1 µM
Cc1cn([C@H]2C[C@H](N=[N+]=[N-])[C@@H](CO)O2)c(=O)[nH]c1=O	NL4-3	WT	HeLa CD4	β-galactosidase		0.043 µM
Cc1ccnc2c1NC(=O)c1cccnc1N2C1CC1	NNRTI-resistant (RT V106A Y181C)	RT-V106A Y181C	MAGI	β-galactosidase		>10 µM
c1cc(CN2CCCNCCNCCCNCC2)ccc1CN1CCCNCCNCCCNCC1	A031-2		MAGI + MAGI-CCR5	β-galactosidase		1.33 µM
Cc1cn([C@H]2C=C[C@@H](CO)O2)c(=O)[nH]c1=O	HXB2 WT		MAGI (CCR5) + MAGI	β-galactosidase		7.6 µM
Cc1cn([C@H]2C[C@H](N=[N+]=[N-])[C@@H](CO)O2)c(=O)[nH]c1=O	A012B		HT4 + HT4-6C	plaque count		0.005 µM
N#Cc1c(Br)n(COC(CO)CO)c2ncnc(N)c12			MT-2 + MT2	cytopathic effect / XTT		300 µM
Cc1cn([C@H]2C[C@H](N=[N+]=[N-])[C@@H](CO)O2)c(=O)[nH]c1=O	R416-10 Clinical isolate ZDV-resistant	RT-M41L T215Y	PBMC	p24		0.3 µM
Nc1ccn([C@H]2CC[C@@H](CO)O2)c(=O)n1	HXB2-D (RT K65R M184V)	RT-K65R M184V	CBMC	p24		2.9 ± 0.4 µM
Cc1ccnc2c1NC(=O)c1cccnc1N2C1CC1	NL4-3		C8166	p24 / ELISA		0.01435 µM
Cn1c2ccccc2c2c1cc(C#N)c(=O)n2-c1ccc([N+](=O)[O-])cc1	NRTI resistant	RT-M41L D67N T69N K70R T215F K219E	HeLa	luciferase		0.019 µM
O=c1[nH]cnc2c1ncn2[C@H]1CC[C@@H](CO)O1	HXB2		HT4 + HT4 LacZ-1	plaque count		1.26 µM
CC[C@H](C)[C@H](C(=O)O)N1C[C@H](CN2CCC(c3cc(Cc4ccc(OC)c(OC)c4)nn3CC)CC2)[C@@H](c2cccc(F)c2)C1	BaL		HeLa	β-galactosidase		<0.0004 µM
Cc1ccnc2c1NC(=O)c1cccnc1N2C1CC1	Calanolide A-resistant (RT T139I)	RT-T139I	CEM + CEM-SS	cytopathic effect / XTT		0.01 µM
Cc1cn([C@H]2C[C@H](N=[N+]=[N-])[C@@H](COP(=O)(OCCSC(=O)C(C)C)OCCSC(=O)C(C)C)O2)c(=O)[nH]c1=O	LAV1-BRU		MOLT-4/8	p24		0.035 µM
CCn1nc(Cc2ccc(C(F)(F)F)cc2)cc1C1CCN(C[C@H]2CN([C@@H](C(=O)O)C3CCCCC3)C[C@@H]2c2cccc(F)c2)CC1	BaL		HeLa	β-galactosidase	50% human serum	<0.033 µM
CCOC(=O)[C@H](Cc1ccccc1)NC(=O)[C@@H](O)[C@H](O)C(=O)N[C@@H](Cc1ccccc1)C(=O)OCC	Z2Z6		PM1	cytopathic effect / MTT		>100 µM
Cc1ccc(-n2nnnc2-c2cn[nH]c2-c2cccc(F)c2)cc1	NL4-3	WT	HeLa CD4	β-galactosidase		1.117 µM
Cc1occc1C(=S)Nc1ccc(Cl)c(/C=N/OC(C)(C)C)c1	3TC-RS (RT-M184I)	RT-M184I	CEM + CEM-SS	cytopathic effect / XTT		0.2 µM
Cc1cn([C@H]2C[C@H](N=[N+]=[N-])[C@@H](CO)O2)c(=O)n(N)c1=O	BRU		CEM-C113 + CEM/C113	cytopathic effect / MTT		0.03 µM
C=C/C=C(\C=C/Cc1c2nc(c(-c3ccc(S(=O)(=O)NCCN(CC)CC)cc3)c3ccc([n-]3)c(C/C=C\C(=C/C=C)S(=O)(=O)NCCN(CC)CC)c3ccc([n-]3)c(-c3ccc(S(=O)(=O)NCCN(CC)CC)cc3)c3nc1C=C3)C=C2)S(=O)(=O)NCCN(CC)CC.[O]=[V+2]	BaL		HUT/CCR5 + HUT	p24	3 d	0.82 µM
C/C=C/CSc1cc(NC(=S)c2ccsc2C)ccc1Cl	NL4-3 (RT M184V)	RT-M184V	CEM + CEM-SS	cytopathic effect / XTT		0.1 µM
CC(C)(C)NC(=O)[C@@H]1CN(Cc2cccnc2)CCN1C[C@@H](O)C[C@@H](Cc1ccccc1)C(=O)N[C@H]1c2ccccc2C[C@H]1O	Z2Z6		PM1	cytopathic effect / MTT		0.2 µM
Fc1cccc(F)c1C1SCc2nc3ccccc3n21	IIIB		CEM + CEM-SS	XTT		2.5 µM
N#Cc1c(N)n(COCCO)c2ncnc(N)c12			MT-2 + MT2	cytopathic effect / XTT		>400 µM
Nc1ccn([C@@H]2CC[C@H](CO)O2)c(=O)n1	74V (RT-L74V)	RT-L74V	HT4 + HT4 LacZ-1			6.3 µM
CCOC(=O)[C@H](Cc1ccccc1)NC(=O)[C@@H](OC(C)=O)[C@H](OC(C)=O)C(=O)N[C@@H](Cc1ccccc1)C(=O)OCC	Z2Z6		PM1	cytopathic effect / MTT		50 µM
N#Cc1c(N)n(COC(CO)CO)c2ncnc(N)c12			MT-2 + MT2	cytopathic effect / XTT		360 µM
CC(=O)N(O)CCCCCNC(=O)CCC(=O)N(O)CCCCCNC(=O)CCC(=O)N(O)CCCCCN	BaL		PBLC	XTT / p24		<10 µM
Nc1ccn([C@H]2CC[C@@H](CO)O2)c(=O)n1	RF		MOLT-4/8	p24		0.35 µM
C[C@@H](NC[C@@H](O)[C@H](O)CN[C@H](C)c1ccccc1)c1ccccc1	Z2Z6		PM1	cytopathic effect / MTT		2 µM
Cc1cc(C)cc(C(=O)c2cc(Cl)ccc2OCCN2C(=O)NC(=O)C(C)C2C)c1		K103N		RT activity	pseudotyped	1.6 µM
Nc1nc(=O)n([C@@H]2CS[C@H](CO)O2)cc1F	RTMC(184) (RT D67N K70R M184V T215F K219Q)	RT-D67N K70R M184V T215F K219Q	HT4 + HT4 LacZ-1	plaque count		>500 µM
O=c1[nH]cnc2c1ncn2[C@H]1CC[C@@H](CO)O1	RTMC	RT-D67N K70R T215Y K219Q	HT4 + HT4 LacZ-1	plaque count		2 µM
Cc1cn([C@H]2C[C@H](N=[N+]=[N-])[C@@H](CO)O2)c(=O)[nH]c1=O		RT-P157S	CD4+HELA + HeLa	p24		0.06 µM
Cc1cn([C@H]2C[C@H](N=[N+]=[N-])[C@@H](CO)O2)c(=O)[nH]c1=O	NL4-3	RT-V106I	CEM + CEM-SS	XTT		0.003 µM
Cc1cn([C@@H]2O[C@H](CO[Si](C)(C)C(C)(C)C)[C@@]3(OS(=O)(=O)C=C3N)[C@H]2O[Si](C)(C)C(C)(C)C)c(=O)[nH]c1=O	UC10-resistant (RT Y181C K101E)	RT-Y181C K101E	CEM + CEM-SS	cytopathic effect / XTT		>10 µM
C#C[C@]1(CO)O[C@@H](n2cnc3c(N)nc(F)nc32)C[C@@H]1O	Clinical isolate	M184V/H221Y	MT4-GFP	fluorescence		0.00793 µM
Cc1cn([C@H]2C[C@H](N=[N+]=[N-])[C@@H](CO)O2)c(=O)[nH]c1=O	IIIB		MOLT4 + MOLT-4	p24 / ELISA		<0.001 µg/mL
Nc1nc(=O)n([C@@H]2CC[C@H](CO)O2)cc1F	74V (RT-L74V)	RT-L74V	HT4 + HT4 LacZ-1			0.8 µM
Cc1cc(C#N)cc(C)c1Oc1nc(Nc2ccc(C#N)cc2)nc(N)c1Br	LAI	E138Q	TZM-bl			0.004 µM
Cc1cn([C@H]2C[C@H](N=[N+]=[N-])[C@@H](COP(=O)(OCCSC(=O)C(C)(C)C)OCCSC(=O)C(C)(C)C)O2)c(=O)[nH]c1=O	LAV1-BRU		MOLT-4/8	p24		0.021 µM
Cc1cn([C@H]2C[C@H](N=[N+]=[N-])[C@@H](CO)O2)c(=O)[nH]c1=O			MT-2 + MT2	cytopathic effect / XTT		0.002 µM
Cc1nc2ccccc2n1S(=O)(=O)c1cc(Br)ccc1Br	NL4.3-XCS	41-215 (AZT-resistant)	HeLa CD4	β-galactosidase		0.914 µM
Cc1ccnc2c1NC(=O)c1cccnc1N2C1CC1	HXB2 WT		MAGI (CCR5) + MAGI	β-galactosidase		0.022 µM
CCCOc1ccc(Cc2cc(C3CCN(C[C@H]4CN([C@@H](C(=O)O)C(C)(C)C)C[C@@H]4c4cccc(F)c4)CC3)n(CC)n2)cc1	BaL		HeLa	β-galactosidase	50% human serum	<0.3 µM
C[C@H](NC(=O)[C@@H](O)[C@H](O)C(=O)N[C@@H](C)c1ccccc1)c1ccccc1	Z2Z6		PM1	cytopathic effect / MTT		>100 µM
N#Cc1c(Br)n(COCCO)c2ncnc(N)c12			MT-2 + MT2	cytopathic effect / XTT		>100 µM
C[C@H](Cn1cnc2c(N)ncnc21)OCP(=O)(O)O	LAI		TZM-bl			16.1 µM
Cc1cn([C@H]2C[C@H](N=[N+]=[N-])[C@@H](CO)O2)c(=O)[nH]c1=O	Recombinant	RT-M184V	HeLa	luciferase		0.0304 µM
CCn1nc(Cc2ccc(OC3CC3)cc2)cc1C1CCN(C[C@H]2CN([C@@H](C(=O)O)C(C)C)C[C@@H]2c2cccc(F)c2)CC1	BaL		HeLa	β-galactosidase	50% human serum	<0.3 µM
CCN(CC)CCNS(=O)(=O)c1ccc(-c2c3nc(c(-c4ccc(S(=O)(=O)NCCN(CC)CC)cc4)c4ccc([nH]4)c(-c4ccc(S(=O)(=O)NCCN(CC)CC)cc4)c4nc(c(-c5ccc(S(=O)(=O)NCCN(CC)CC)cc5)c5ccc2[nH]5)C=C4)C=C3)cc1	BaL		HUT/CCR5 + HUT	p24	7 d	>5 µM
O=C1N(Cc2ccc(CO)cc2)[C@H](Cc2ccccc2)[C@H](O)[C@@H](O)[C@@H](Cc2ccccc2)N1Cc1ccc(CO)cc1	Clinical isolate P		PBMC	p24		0.11 µM
N#Cc1c(N)n([C@@H]2O[C@H](CO)[C@@H](O)[C@H]2O)c2ncnc(N)c12			MT-2 + MT2	cytopathic effect / XTT		>100 µM
Cc1cn([C@H]2C[C@H](N=[N+]=[N-])[C@@H](COP(=O)(O)OCCCCCCCCN3CCN(C)CC3)O2)c(=O)[nH]c1=O	LAI		CEM + CEM-4	RT activity		0.4 µM

The last 4 rows once more:

SMILES	strain or isolate	mutations	cell line	read by	setting	value
CCN(CC)CCNS(=O)(=O)c1ccc(-c2c3nc(c(-c4ccc(S(=O)(=O)NCCN(CC)CC)cc4)c4ccc([nH]4)c(-c4ccc(S(=O)(=O)NCCN(CC)CC)cc4)c4nc(c(-c5ccc(S(=O)(=O)NCCN(CC)CC)cc5)c5ccc2[nH]5)C=C4)C=C3)cc1	BaL		HUT/CCR5 + HUT	p24	7 d	>5 µM
O=C1N(Cc2ccc(CO)cc2)[C@H](Cc2ccccc2)[C@H](O)[C@@H](O)[C@@H](Cc2ccccc2)N1Cc1ccc(CO)cc1	Clinical isolate P		PBMC	p24		0.11 µM
N#Cc1c(N)n([C@@H]2O[C@H](CO)[C@@H](O)[C@H]2O)c2ncnc(N)c12			MT-2 + MT2	cytopathic effect / XTT		>100 µM
Cc1cn([C@H]2C[C@H](N=[N+]=[N-])[C@@H](COP(=O)(O)OCCCCCCCCN3CCN(C)CC3)O2)c(=O)[nH]c1=O	LAI		CEM + CEM-4	RT activity		0.4 µM